{"source": "PubChem BioAssay AID504761, Drosophila RNAi Screening Center – 2011", "assay": "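Genome-wide fly cell screen for genes dengue virus requires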 (primary screen)", "cell system": "D.Mel-2 cells from Drosophila", "knock-down reagent": "long dsRNA against Drosophila genes", "challenge": "infection with dengue virus type 2; dose and infection time not stated", "measured": "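Per well on two replicate plates, imaging gave the percent of cells positive for viral envelope protein, ranked by infection, and a nuclear count of cells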", "reading the numbers": "infection score: higher = more virus-infected cells; cell count: higher = more cells in the well", "hit rule": "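Low infection ranks in the two replicates (chance level up to 0.065) followed by a retest with a 1.5-fold or larger significant decrease, p below 0.05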", "meaning of the calls": "active = confirmed: knock-down lowers infection; inactive = not picked or not confirmed", "note": "The deposit covers about 22,000 reagents; shown is a random part of those with a known target gene and a result. In the full data, 116 (0.52%) got an active call. 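Calls depend on retest data that are not deposited; infection was ranked per plate without normalising between plates; the unit of the infection score is not given.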 Raw values vary from plate to plate and are shown uncorrected. Entries without a mark were called inactive. A plus sign joins genes that one reagent is predicted to hit. Reagent sequences are not shown. Not stated in the record: the amount of reagent, the time to read-out."}
{"gene": "Mkrn1", "dsRNA": "DRSC11870", "infection score, replicate 1": 3.02, "infection score, replicate 2": 1.21, "cell count, replicate 1": 5333, "cell count, replicate 2": 6520}
{"gene": "Mkrn1", "dsRNA": "DRSC25478", "infection score, replicate 1": 1.53, "infection score, replicate 2": 2.13, "cell count, replicate 1": 5868, "cell count, replicate 2": 6060}
{"gene": "CG40282 (retired record)", "dsRNA": "DRSC07814", "infection score, replicate 1": 0.43, "infection score, replicate 2": 1.11, "cell count, replicate 1": 4922, "cell count, replicate 2": 4756}
{"gene": "RASSF8", "dsRNA": "DRSC15707", "infection score, replicate 1": 2.66, "infection score, replicate 2": 4.41, "cell count, replicate 1": 6314, "cell count, replicate 2": 6508}
{"gene": "RASSF8", "dsRNA": "DRSC26449", "infection score, replicate 1": 1.14, "infection score, replicate 2": 4.22, "cell count, replicate 1": 6578, "cell count, replicate 2": 6499}
{"gene": "lbm", "dsRNA": "DRSC07643", "infection score, replicate 1": 2.38, "infection score, replicate 2": 14.5, "cell count, replicate 1": 6265, "cell count, replicate 2": 6396}
{"gene": "Uch", "dsRNA": "DRSC00797", "infection score, replicate 1": 11.4, "infection score, replicate 2": 19.3, "cell count, replicate 1": 5894, "cell count, replicate 2": 5616}
{"gene": "Cep89", "dsRNA": "DRSC07110", "infection score, replicate 1": 4.26, "infection score, replicate 2": 11, "cell count, replicate 1": 6858, "cell count, replicate 2": 6585}
{"gene": "Cep89", "dsRNA": "DRSC29382", "infection score, replicate 2": 26.4, "cell count, replicate 1": 275, "cell count, replicate 2": 4998}
{"gene": "Girdin", "dsRNA": "DRSC08292", "infection score, replicate 1": 27.8, "infection score, replicate 2": 1.91, "cell count, replicate 1": 5837, "cell count, replicate 2": 5928}

Reformatted: 2 of the entries above
RASSF8 [DRSC15707] | infection score, replicate 1 = 2.66; infection score, replicate 2 = 4.41; cell count, replicate 1 = 6314; cell count, replicate 2 = 6508
RASSF8 [DRSC26449] | infection score, replicate 1 = 1.14; infection score, replicate 2 = 4.22; cell count, replicate 1 = 6578; cell count, replicate 2 = 6499

The results go on:
{"gene": "ssp2", "dsRNA": "DRSC11052", "infection score, replicate 1": 6.36, "infection score, replicate 2": 7.81, "cell count, replicate 1": 6293, "cell count, replicate 2": 6271}
{"gene": "ssp2", "dsRNA": "DRSC23906", "infection score, replicate 1": 5.2, "infection score, replicate 2": 6.71, "cell count, replicate 1": 6152, "cell count, replicate 2": 6095}
{"gene": "Mst84B", "dsRNA": "DRSC12579", "infection score, replicate 1": 13.7, "infection score, replicate 2": 0.9, "cell count, replicate 1": 5336, "cell count, replicate 2": 5585}
{"gene": "Mst84B", "dsRNA": "DRSC27767", "infection score, replicate 1": 18.7, "infection score, replicate 2": 12.7, "cell count, replicate 1": 5515, "cell count, replicate 2": 6673}
{"gene": "ms(3)76Cc", "dsRNA": "DRSC11071", "infection score, replicate 1": 0.95, "infection score, replicate 2": 6.88, "cell count, replicate 1": 6444, "cell count, replicate 2": 6323}
{"gene": "ms(3)76Cc", "dsRNA": "DRSC21630", "infection score, replicate 1": 5.01, "infection score, replicate 2": 5.97, "cell count, replicate 1": 5954, "cell count, replicate 2": 6028}
{"gene": "Hsdl2", "dsRNA": "DRSC15839", "infection score, replicate 1": 2.69, "infection score, replicate 2": 6.72, "cell count, replicate 1": 6320, "cell count, replicate 2": 6597}
{"gene": "Hsdl2", "dsRNA": "DRSC28075", "infection score, replicate 1": 11.9, "infection score, replicate 2": 15.1, "cell count, replicate 1": 6581, "cell count, replicate 2": 6655}
{"gene": "Snrk", "dsRNA": "DRSC07192", "infection score, replicate 1": 30.4, "infection score, replicate 2": 31.7, "cell count, replicate 1": 5765, "cell count, replicate 2": 5738}
{"gene": "Snrk", "dsRNA": "DRSC23332", "infection score, replicate 1": 0.6, "infection score, replicate 2": 3.71, "cell count, replicate 1": 6643, "cell count, replicate 2": 6520}
{"gene": "Orct2", "dsRNA": "DRSC14613", "infection score, replicate 1": 2.91, "infection score, replicate 2": 12.9, "cell count, replicate 1": 6632, "cell count, replicate 2": 6638}
{"gene": "Orct2", "dsRNA": "DRSC24714", "infection score, replicate 1": 9.13, "infection score, replicate 2": 6.64, "cell count, replicate 1": 6593, "cell count, replicate 2": 6298}
{"gene": "CG18132", "dsRNA": "DRSC00518", "infection score, replicate 1": 2.19, "infection score, replicate 2": 8.05, "cell count, replicate 1": 6773, "cell count, replicate 2": 6645}
{"gene": "CG32473", "dsRNA": "DRSC14352", "infection score, replicate 1": 7.87, "infection score, replicate 2": 6.03, "cell count, replicate 1": 6834, "cell count, replicate 2": 6967}
{"gene": "CG32473", "dsRNA": "DRSC16446", "infection score, replicate 1": 24.3, "infection score, replicate 2": 32.8, "cell count, replicate 1": 5497, "cell count, replicate 2": 5408}
{"gene": "CG7945 + yellow-k", "dsRNA": "DRSC10851", "infection score, replicate 1": 8.84, "infection score, replicate 2": 10.2, "cell count, replicate 1": 5692, "cell count, replicate 2": 3779}
{"gene": "CG13841", "dsRNA": "DRSC14691", "infection score, replicate 1": 1.52, "infection score, replicate 2": 6.51, "cell count, replicate 1": 5871, "cell count, replicate 2": 6453}
{"gene": "CG13841", "dsRNA": "DRSC26257", "infection score, replicate 1": 17.3, "infection score, replicate 2": 13.1, "cell count, replicate 1": 3715, "cell count, replicate 2": 4262}
